From EP4745153A1 (Jiangsu Hengrui Pharmaceuticals Co., Ltd., priority 2023, dated 2025) come the findings set out here.

This data set can be described thus: general procedure: Fmoc solid-phase peptide synthesis; Rink-amide MBHA resin, 0.54 mmole/g; HATU / 4-methylmorpholine. Conditions: whole synthesis, analytical ultra-high performance liquid chromatography and LC/MS.
Consider “H-Aib-HGTFTSDLS-αK-LLE-K(-OEG-OEG-γGlu-C(O)-(CH2)18-COOH)-KAA-Iva-EFVEWLIEGGPSSGAPPPS-NH2”, for which the “final HPLC purity” value was found to be 97.95%.
Then “H-Aib-HGTFTSDYS-αK-LLE-K(-OEG-OEG-γGlu-C(O)-(CH2)18-COOH)-KAA-Iva-EFVEWLIEGGPSSGAPPPS-NH2”, with 87.55%; and “H-Aib-HGTFTSDYSI-αL-LE-K(-OEG-OEG-γGlu-C(O)-(CH2)18-COOH)-KAAQEFVEWLLA-e-GPSSGAPPPS-NH2”, with 86.75%; and “H-Aib-HGTFTSDYS-αK-YLE-K(-OEG-OEG-γGlu-C(O)-(CH2)18-COOH)-KAAQEFVEWLIEGGPSSGAPPPS-NH2”, with 95.98%.
In the case of “H-Aib-HGTFTSDYSI-αL-LE-K(-OEG-OEG-γGlu-C(O)-(CH2)18-COOH)-KAAQEFVEWLLAGGPSSGAPPPS-NH2”, the “final HPLC purity” value is listed as 95.58%.
Consider “H-Aib-HGTFTSDYS-αK-LLE-K(-OEG-OEG-γGlu-C(O)-(CH2)18-COOH)-KAAQEFVEWLLAGGPSSGAPPPS-NH2”, for which the “final HPLC purity” value is 93.14%.
Then “H-Aib-HGTFTSDLSI-αL-LE-K(-OEG-OEG-γGlu-C(O)-(CH2)18-COOH)-KAA-Iva-EFVEWLLAGGPSSGAPPPS-NH2”, with 99.09%.
With “H-Aib-HGTFTSDYS-αK-LLE-K(-OEG-OEG-γGlu-C(O)-(CH2)18-COOH)-KAA-αS-EFVEWLIEGGPSSGAPPPS-NH2”, the “final HPLC purity” value was 99.27%.
Turning to “H-Aib-HGTFTSDLSI-αL-LE-K(-OEG-OEG-γGlu-C(O)-(CH2)18-COOH)-KAAQEFVEWLLAGGPSSGAPPPS-NH2”, the “final HPLC purity” value is listed as 94.97%.
Take “H-Aib-HGTFTSDLSI-αL-LE-K(-OEG-OEG-γGlu-C(O)-(CH2)18-COOH)-KAA-Ac4c-EFVEWLLAGGPSSGAPPPS-NH2”: the “final HPLC purity” value is 95.39%.
Then “H-Aib-HGTFTSDYS-αK-YLE-K(-OEG-OEG-γGlu-C(O)-(CH2)18-COOH)-KAAQEFVEWLLAGGPSSGAPPPS-NH2”, with 97.18%; and “H-Aib-HGTFTSDYS-αK-LLE-K(-OEG-OEG-γGlu-C(O)-(CH2)18-COOH)-QAA-Iva-EFVEWLLAGGPSSGAPPPS-NH2”, with 99.50%; and “H-Aib-HGTFTSDYS-αK-ILE-K(-OEG-OEG-γGlu-C(O)-(CH2)18-COOH)-QAA-Iva-EFVEWLLAGGPSSGAPPPS-NH2”, with 93.33%.
In the case of “H-Aib-HGTFTSDLSI-αL-LE-K(-OEG-OEG-γGlu-C(O)-(CH2)18-COOH)-KAAQEFVEWLLA-e-GPSSGAPPPS-NH2”, the “final HPLC purity” value worked out at 95.29%.
As for “H-Aib-HGTFTSDYS-αK-ILE-K(-OEG-OEG-γGlu-C(O)-(CH2)18-COOH)-KAAQEFVEWLLAGGPSSGAPPPS-NH2”, the “final HPLC purity” value worked out at 96.89%.
Then “H-Aib-HGTFTSDYSI-αL-LE-K(-OEG-OEG-γGlu-C(O)-(CH2)18-COOH)-KAA-Iva-EFVEWLLAGGPSSGAPPPS-NH2”, with 99.02%; and “H-Aib-HGTFTSDYS-αK-YLE-K(-OEG-OEG-γGlu-C(O)-(CH2)18-COOH)-KAQQEFVEWLLAGGPSSGAPPPS-NH2”, with 94.25%.
Regarding “H-Aib-QGTFTSDYSI-αL-LE-K(-OEG-OEG-γGlu-C(O)-(CH2)18-COOH)-KAA-Aib-EFVEWLLAGGPSSGAPPPS-NH2”, the “final HPLC purity” value amounted to 93.26%.
On to “Y-Aib-QGTFTSDYS-αK-LLE-K(-OEG-OEG-γGlu-C(O)-(CH2)18-COOH)-KAA-Iva-EFVEWLLAGGPSSGAPPPS-NH2”, for which the “final HPLC purity” value was found to be 93.21%.
Under “Y-Aib-QGTFTSDYS-αK-ILE-K(-OEG-OEG-γGlu-C(O)-(CH2)18-COOH)-KAA-Iva-EFVEWLLAGGPSSGAPPPS-NH2” stands 86.65%.
